{"source": "PubChem BioAssay AID1259414 (Drosophila RNAi Screening Center, 2018)", "assay": "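Fly genes that alter Wolbachia amount inside host cells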 (primary screen)", "cell system": "Drosophila JW18 cells infected with Wolbachia", "knock-down reagent": "long dsRNA against Drosophila genes, 0.25 µg dsRNA per well of a 384-well plate", "timing": "5 days", "treatment": "cells persistently infected with Wolbachia before knock-down; no added drug", "read-out": "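Automated imaging of bacterial rRNA staining divided by host cell count, reported as plate-normalised robust z-score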", "reading the numbers": "Wolbachia per cell robust z: higher = more Wolbachia per host cell than the plate typical", "active means": "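Active if absolute robust z reaches 1.5 in two or more of three replicates, leaving out multi- or no-target dsRNAs, genes unexpressed in JW18 and A1 wells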", "note": "The screen tested about 24,000 reagents; shown is an unselected part of those with a known target gene and a result. In the full data, about 1,210 (5%) are marked active. 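Inactive calls also include excluded dsRNAs with several or no targets, genes unexpressed in JW18, and well A1, regardless of score.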 Reagent sequences are not shown."}
{"target":"CG33928","dsRNA":"DRSC37816","Wolbachia per cell robust z, rep 1":2.07,"Wolbachia per cell robust z, rep 2":0.708,"Wolbachia per cell robust z, rep 3":1.55,"Outcome":"inactive"}
{"target":"CG34460","dsRNA":"DRSC06974","Wolbachia per cell robust z, rep 1":-2.44,"Wolbachia per cell robust z, rep 2":-1.11,"Wolbachia per cell robust z, rep 3":-2.64,"Outcome":"inactive"}
{"target":"CG34460","dsRNA":"DRSC41471","Wolbachia per cell robust z, rep 1":0.162,"Wolbachia per cell robust z, rep 2":-0.906,"Wolbachia per cell robust z, rep 3":-0.535,"Outcome":"inactive"}
{"target":"CG11668","dsRNA":"DRSC14341","Wolbachia per cell robust z, rep 1":-0.66,"Wolbachia per cell robust z, rep 2":-0.0828,"Wolbachia per cell robust z, rep 3":0.608,"Outcome":"inactive"}
{"target":"mad2","dsRNA":"DRSC10274","Wolbachia per cell robust z, rep 1":1.72,"Wolbachia per cell robust z, rep 2":1.57,"Wolbachia per cell robust z, rep 3":0.272,"Outcome":"active"}
{"target":"CG31337","dsRNA":"DRSC12981","Wolbachia per cell robust z, rep 1":-1.25,"Wolbachia per cell robust z, rep 2":-0.547,"Wolbachia per cell robust z, rep 3":-0.618,"Outcome":"inactive"}
{"target":"CG15443","dsRNA":"DRSC00455","Wolbachia per cell robust z, rep 1":-2.91,"Wolbachia per cell robust z, rep 2":-0.28,"Wolbachia per cell robust z, rep 3":-0.539,"Outcome":"inactive"}
{"target":"TwdlT (TweedleT)","dsRNA":"DRSC21540","Wolbachia per cell robust z, rep 1":-0.352,"Wolbachia per cell robust z, rep 2":1.11,"Wolbachia per cell robust z, rep 3":-0.00592,"Outcome":"inactive"}
{"target":"CG7878","dsRNA":"DRSC16330","Wolbachia per cell robust z, rep 1":0.939,"Wolbachia per cell robust z, rep 2":1.13,"Wolbachia per cell robust z, rep 3":0.32,"Outcome":"inactive"}
{"target":"CG7878","dsRNA":"DRSC23990","Wolbachia per cell robust z, rep 1":0.374,"Wolbachia per cell robust z, rep 2":-0.452,"Wolbachia per cell robust z, rep 3":1.39,"Outcome":"inactive"}
{"target":"DNAlig4 (DNA ligase 4)","dsRNA":"DRSC19436","Wolbachia per cell robust z, rep 1":-1.08,"Wolbachia per cell robust z, rep 2":-0.176,"Wolbachia per cell robust z, rep 3":-3.52,"Outcome":"inactive"}

Reformatted: results already given.
target,dsRNA,"Wolbachia per cell robust z, rep 1","Wolbachia per cell robust z, rep 2","Wolbachia per cell robust z, rep 3",Outcome
CG11668,DRSC14341,-0.66,-0.0828,0.608,inactive
mad2,DRSC10274,1.72,1.57,0.272,active

The listing continues:
{"target":"Rab3-GAP (Rab3 GTPase activating protein)","dsRNA":"DRSC02001","Wolbachia per cell robust z, rep 1":-0.152,"Wolbachia per cell robust z, rep 2":-0.833,"Wolbachia per cell robust z, rep 3":0.269,"Outcome":"inactive"}
{"target":"Rab3-GAP (Rab3 GTPase activating protein)","dsRNA":"DRSC28519","Wolbachia per cell robust z, rep 1":-3.15,"Wolbachia per cell robust z, rep 2":0.739,"Wolbachia per cell robust z, rep 3":0.28,"Outcome":"inactive"}
{"target":"Vps24 (Vacuolar protein sorting 24)","dsRNA":"DRSC12332","Wolbachia per cell robust z, rep 1":-0.289,"Wolbachia per cell robust z, rep 2":0.0508,"Wolbachia per cell robust z, rep 3":-0.275,"Outcome":"inactive"}
{"target":"Vps24 (Vacuolar protein sorting 24)","dsRNA":"DRSC29224","Wolbachia per cell robust z, rep 1":0.455,"Wolbachia per cell robust z, rep 2":-0.341,"Wolbachia per cell robust z, rep 3":-3.75,"Outcome":"inactive"}
{"target":"knrl (knirps-like)","dsRNA":"DRSC23245","Wolbachia per cell robust z, rep 1":1.33,"Wolbachia per cell robust z, rep 2":0.248,"Wolbachia per cell robust z, rep 3":0.771,"Outcome":"inactive"}
{"target":"knrl (knirps-like)","dsRNA":"DRSC28310","Wolbachia per cell robust z, rep 1":-1.21,"Wolbachia per cell robust z, rep 2":-1.52,"Wolbachia per cell robust z, rep 3":-1.06,"Outcome":"inactive"}
